Tested on: wild type B.1 SARS-CoV-2
Format: cell-based

Row | Substance | IC50 [µg/mL] | IC50 vs. B.1 Mean ± SD [µg/mL]
1 | tixagevimab | 0.07 ± 0.04 | 0.068 ± 0.041
2 | cilgavimab | 0.20 ± 0.13 | 0.204 ± 1.354
